Test results reported in patent US8242120B2 (priority 2007, dated 2012).

Tested on: avian influenza A H5N1 viruses or hybrid viruses
Test: Activity of 5-F carbodine against avian influenza A H5N1 viruses or hybrid viruses, in vitro
Details: values only in FIG. 2

For `Nc1nc(=O)n([C@@H]2C[C@H](CO)[C@@H](O)[C@H]2O)cc1F`, the “activity in vitro against avian Influenza A H5N1 strain” value was “quite active”.
